Reference: paper PMC2908543, “Uropathogenic Escherichia coli Modulates Immune Responses and Its Curli Fimbriae Interact with the Antimicrobial Peptide LL-37” (PLoS Pathogens, 2010)

Test system: CsgA
Experiment: CD spectroscopy of CsgA
Set-up: species or system Escherichia coli
Conditions: 40 µM CsgA with 10 µM LL-37, 50 mM KPi, 0.02% NaN3, pH 7.2, 60 h at 37°C, 190 to 250 nm, spectrum at 20°C
Protocol: Samples containing 40 µM CsgA in 50 mM potassium phosphate buffer (KPi) and 0.02% NaN3, pH 7.2, with and without 10 µM LL-37 were incubated for 60 h at 37°C. The samples were then assayed with a Jasco J-810 spectropolarimeter from 190 to 250 nm in a quartz cell with a 1-mm path length at 20°C. The spectrum of buffer alone and LL-37 in buffer was subtracted from the spectra for CsgA alone and for CsgA together with LL-37, respectively.

CC[C@H](C)[C@H](NC(=O)[C@H](CCCCN)NC(=O)[C@H](CCC(=O)O)NC(=O)[C@H](CCCCN)NC(=O)[C@H](CO)NC(=O)[C@H](CCCCN)NC(=O)[C@H](CCCNC(=N)N)NC(=O)[C@H](Cc1ccccc1)NC(=O)[C@H](Cc1ccccc1)NC(=O)[C@H](CC(=O)O)NC(=O)CNC(=O)[C@H](CC(C)C)NC(=O)[C@@H](N)CC(C)C)C(=O)NCC(=O)N[C@@H](CCCCN)C(=O)N[C@@H](CCC(=O)O)C(=O)N[C@@H](Cc1ccccc1)C(=O)N[C@@H](CCCCN)C(=O)N[C@@H](CCCNC(=N)N)C(=O)N[C@H](C(=O)N[C@H](C(=O)N[C@@H](CCC(N)=O)C(=O)N[C@@H](CCCNC(=N)N)C(=O)N[C@H](C(=O)N[C@@H](CCCCN)C(=O)N[C@@H](CC(=O)O)C(=O)N[C@@H](Cc1ccccc1)C(=O)N[C@@H](CC(C)C)C(=O)N[C@@H](CCCNC(=N)N)C(=O)N[C@@H](CC(N)=O)C(=O)N[C@@H](CC(C)C)C(=O)N[C@H](C(=O)N1CCC[C@H]1C(=O)N[C@@H](CCCNC(=N)N)C(=O)N[C@H](C(=O)N[C@@H](CCC(=O)O)C(=O)N[C@@H](CO)C(=O)O)[C@@H](C)O)C(C)C)[C@@H](C)CC)C(C)C)[C@@H](C)CC [LL-37]
structure of CsgA in presence of LL-37 (CD): unstructured, random coil structure
